Measured values as given in PMC9532970, “Rational design of photosynthetic reaction center protein maquettes” (Frontiers in Molecular Biosciences, 2022).

Experiments:
DH maquette = assay: Heme B retained by DH maquette after expression in E. coli and purification (UV/vis estimate); conditions: after IMAC, TEV cleavage and SEC, no exogenous heme
RC maquette = assay: Heme B retained by RC maquette after expression in E. coli and purification (UV/vis estimate)

C=CC1=C(C)c2cc3[n-]c(cc4[n-]c(cc5nc(cc1n2)C(C)=C5C=C)c(C)c4CCC(=O)O)c(CCC(=O)O)c3C.[Fe+2] [heme B]
heme B contained after purification, per DH maquette (DH maquette): ~0.25 molar equivalents | heme B contained after purification, per binding site (DH maquette): ~0.13 equivalents | heme B remaining bound after purification, per mole of RC maquette (RC maquette; after Ni-NTA and SEC, no exogenous heme): ~0.1 equivalents | fraction of protein that retained heme after purification (RC maquette; no exogenous heme added): ~10%
